System: HIV-1
Details: CC50/IC50; Table 2
Procedure: The potency of compounds of Formula I was evaluated via single round and multicycle HIV-1 replication assays. The single round assay is used as the first level of potency testing. […] The multicycle HIV-1 replication assay uses primary isolates and primary human peripheral blood mononuclear cells (PBMCs). Toxicity is evaluated simultaneously with the cells utilized in each assay to allow determination of the therapeutic index (TI=CC50/IC50) of each compound. HIV-1 replication assays are performed in primary PBMCs such as described in Kortager, et al., 2012, J Virol. 86(16):8472-8481, Zentner, et al., 2013, ChemMedChem. 8(3):426-432 and Zentner, et al., 2013, Bioorg Med Chem Lett. 2013; 23(4): 1132-1135.

| Structure (SMILES) | Therapeutic index |
| --- | --- |
| CN(C(=O)C(Cc1ccccc1)NC(=O)Cc1n[nH]c2c(N)cccc12)c1ccccc1 (stereo not shown) [Compound C4] | 5515 |
| Cc1[nH]c2ccccc2c1CC(=O)NC(Cc1ccccc1)C(=O)N(C)c1ccc2[nH]ncc2c1 (stereo not shown) [Compound C11] | 2115 |
| CN(C(=O)C(Cc1ccccc1)NC(=O)Cc1n[nH]c2c(N)cccc12)c1ccc2[nH]ncc2c1 (stereo not shown) [Compound C12] | 606 |
| Cc1[nH]c2ccccc2c1CC(=O)N[C@@H](Cc1ccccc1)C(=O)N(C)c1ccccc1 [PF-74, reference compound] | 768 |
